Results of unrelated studies side by side (data: NIAID ChemDB).

Common to all: growth or infection tests; agent: HIV-1

Conditions beyond the fields shown may differ between rows. ECn is the concentration giving n% inhibition of infection, replication or growth. Blank or dashed fields: not listed here.

structure | cell line | mutations | strain | measure | setting | method | result
CC(C)=CCN1Cc2cc(Cl)cc3[nH]c(=S)n(c23)C[C@@H]1C | CEM | RT-L100I | IIIB BHAP(RT-L100I) | EC50 | - | syncytia | 0.27 µg/mL
CCc1cc(CCc2nc3ccccc3o2)c(=S)[nH]c1C | H9 | RT-K103N Y181C | A17 | EC95 | - | p24 | 25 µM
O=CC1=C(Oc2cccc3ccccc23)N2C[C@@H]3CCCN4CCC[C@@H]([C@H]34)[C@H]2CC1 | C8166 | - | IIIB | EC50 | - | syncytia | 1.79 µg/mL
O=C(NCc1ccccc1)c1nc(-c2ccccc2)[nH]c(=O)c1O | MT-4 | - | - | EC95 | 10% FBS | p24 | >10 µM
O=C1/C(=C\Oc2ccc([N+](=O)[O-])cc2)CC[C@@H]2[C@H]3CCCN4CCC[C@@H](CN12)[C@@H]34 | C8166 | - | IIIB | EC50 | - | syncytia | 14.36 µg/mL
O=C([O-])c1ccc(C2=C3C=CC(=N3)C(c3ccc(C(=O)[O-])cc3)=C3C=CC(=N3)C(=c3ccc(=C([O-])[O-])cc3)c3ccc([n-]3)C(c3ccc(C(=O)[O-])cc3)=C3C=CC2=N3)cc1 | MAGI cell | - | IIIB | EC50 | - | β-galactosidase | 1.4 µM
CCc1ccc(-n2c(C)nnc2SCC(=O)Nc2ccccc2Br)c2ccccc12 | HeLa + HeLa-JC53 | RT-K103N Y181C | NL4-3 | EC50 | - | luciferase | 0.022 µM
CS(=O)(=O)c1ccc(OP(=O)(OC[C@@H]2C=C[C@H](n3cnc4c(N)ncnc43)O2)OC[C@@H]2C=C[C@H](n3cnc4c(N)ncnc43)O2)cc1 | MT-4 | - | IIIB | EC50 | - | cytopathic effect / trypan blue | 74 µM
Cc1ccc(NC(=O)CSc2nnc(C)n2-c2c(C)ccc3ccccc23)c(Cl)c1 | HeLa + HeLa-JC53 | RT-Y188L | NL4-3 | EC50 | - | luciferase | 0.2 µM
O=c1ccn([C@H]2C=C[C@@H](CO)O2)c(=O)[nH]1 | MT-4 | - | IIIB | EC50 | - | cytopathic effect / trypan blue | >20 µM
CN1CCOCC1c1nc(C(=O)NCc2ccc(F)cc2)c(O)c(=O)[nH]1 | MT-4 | - | - | EC50 | 50% human serum | p24 | <0.24 µM
N#Cc1cn(C[C@H](CF)OCP(=O)(O)O)c2nc(N)[nH]c(=O)c12 | TZM-bl | - | NL4-3 | EC50 | - | luciferase | >100 µM
COc1ccc(OC2=C(C=O)CC[C@@H]3[C@H]4CCCN5CCC[C@@H](CN23)[C@@H]45)cc1 | C8166 | - | IIIB | EC50 | - | syncytia | 21.85 µg/mL
O=C(NCc1ccccc1)c1nc(-c2cccs2)[nH]c(=O)c1O | MT-4 | - | - | EC95 | 10% FBS | p24 | >10 µM
CCOCn1c(Sc2ccccc2)c(CC)c(=O)[nH]c1=O | CEM | RT-V106A | IIIB NEV(RT-V106A) | EC50 | - | syncytia | 0.08 µg/mL
CCc1cc(CCc2nc3ccccc3o2)c(=O)[nH]c1C | H9 | - | IIIB | EC50 | - | p24 | <0.1 µM
Nc1nc2c(c(F)cn2C[C@H](CF)OCP(=O)(O)O)c(=O)[nH]1 | TZM-bl | - | NL4-3 | EC50 | - | luciferase | >100 µM
Cc1cn([C@H]2C[C@H](N=[N+]=[N-])[C@@H](CO)O2)c(=O)[nH]c1=O | C8166 | - | IIIB | EC50 | - | syncytia | 0.00251 µg/mL
Cc1cn([C@@H]2O[C@H](CO[Si](C)(C)C(C)(C)C)C3(OS(=O)(=O)C=C3N)[C@H]2O)c(=O)[nH]c1=O | MOLT-4 | - | IIIB | EC50 | - | syncytia | >40 µM
COc1ccc(Sc2nc(N)nc3c2ncn3C[C@@H](CF)OP(=O)(O)O)cc1 | TZM-bl | - | BaL | EC50 | - | luciferase | >100 µM
Cc1cn([C@H]2C=C[C@@H](CO)O2)c(=O)[nH]c1=O | MT-4 | - | IIIB | EC50 | - | cytopathic effect / trypan blue | 0.22 µM
Nc1nc(=O)n([C@H]2C=C[C@@H](CO)O2)cc1I | PBMC | - | LAI | EC90 | - | RT activity | >10 µM
O=CC1=C(Oc2ccccc2)N2C[C@@H]3CCCN4CCC[C@@H]([C@H]34)[C@H]2CC1 | C8166 | - | IIIB | EC50 | - | syncytia | 61.17 µg/mL
Cc1ccc(NC(=O)CSc2nnc(C)n2-c2ccccc2)c(Br)c1 | HeLa + HeLa-JC53 | RT-K103N Y181C | NL4-3 | EC50 | - | luciferase | 1.3 µM
O=C([O-])c1cc(COc2ccc(-c3c4nc(c(-c5ccc(OCc6cc(C(=O)[O-])cc(C(=O)[O-])c6)cc5)c5ccc([nH]5)c(-c5ccc(OCc6cc(C(=O)[O-])cc(C(=O)[O-])c6)cc5)c5nc(c(-c6ccc(OCc7cc(C(=O)[O-])cc(C(=O)[O-])c7)cc6)c6ccc3[nH]6)C=C5)C=C4)cc2)cc(C(=O)[O-])c1 | MAGI cell | - | BaL | EC50 | - | β-galactosidase | 0.19 µM
N#Cc1cn(C[C@@H](CF)OCP(=O)(O)O)c2nc(N)[nH]c(=O)c12 | TZM-bl | - | NL4-3 | EC50 | - | luciferase | >100 µM
CCc1c([Se]c2ccccn2)n(COCc2ccccc2)c(=O)[nH]c1=O | MT-2 | - | IIIB | EC50 | - | cytopathic effect | 0.04 ± 0.02 µM
Cc1ccc(-n2c(C)nnc2SCC(=O)Nc2ccc(C)cc2Br)cc1 | HeLa + HeLa-JC53 | RT-K103N Y181C | NL4-3 | EC50 | - | luciferase | 0.1 µM
Nc1nc2c(ccn2C[C@H](CF)OCP(=O)(O)O)c(=O)[nH]1 | PBMC | - | NL4-3 | EC50 | - | luciferase | >100 µM
O=c1[nH]c(=O)n([C@@H]2C=C[C@H](CO)O2)cc1F | PBMC | - | LAI | EC90 | - | RT activity | 3 µM
CCc1c(Sc2ccccc2)n(COCc2ccccc2)c(=O)[nH]c1=O | MT-2 | - | IIIB | EC50 | - | cytopathic effect | 0.02 ± 0.006 µM
COc1ccc(S(=O)(=O)N(CC(C)C)C[C@@H](O)[C@H](Cc2ccc(OC)c(Cl)c2)NC(=O)O[C@H]2CO[C@H]3OCC[C@H]32)cc1 | PBMC | - | 97ZA003 | EC50 | - | p24 / luminescence | 0.0004 µM
CCn1c(=O)c(C)cn([C@@H]2O[C@H](CO[Si](C)(C)C(C)(C)C)C3(OS(=O)(=O)C=C3N)[C@H]2O[Si](C)(C)C(C)(C)C)c1=O | CEM | RT-L100I | IIIB BHAP(RT-L100I) | EC50 | - | syncytia | 0.08 µg/mL
O=C(O)c1ccc(-c2c3nc(c(-c4ccc(C(=O)O)cc4)c4ccc([nH]4)c(-c4ccc(C(=O)O)cc4)c4nc(c(-c5ccc(C(=O)O)cc5)c5ccc2[nH]5)C=C4)C=C3)cc1 | MAGI cell | - | BaL | EC50 | - | β-galactosidase | 4.7 µM
Cc1c(Sc2ccccc2)n(COCCO)c(=O)[nH]c1=O | CEM | RT-L100I | IIIB BHAP(RT-L100I) | EC50 | - | syncytia | 40 µg/mL
Cc1ccc(-n2c(C)nnc2SCC(=O)Nc2ccc(C#N)cc2Cl)cc1 | HeLa + HeLa-JC53 | RT-K103N Y181C | NL4-3 | EC50 | - | luciferase | 0.9 µM
COC(=O)N[C@H](C(=O)N[C@@H](Cc1ccccc1)[C@@H](O)CN(Cc1ccc(-c2ccccn2)cc1)NC(=O)[C@@H](NC(=O)OC)C(C)(C)C)C(C)(C)C | MT-4 | L23I E34Q K43I M46I I50L G51A L63P A71V V82A T91A | NL4-3 | EC50 | - | p24 / luminescence | >1 µM
O=c1[nH]c(=O)n([C@H]2C=C[C@@H](CO)O2)cc1F | PBMC | - | LAI | EC90 | - | RT activity | 23 µM
Nc1ncnc2c1ncn2[C@H]1C=C[C@@H](CO)O1 | MT-4 | - | IIIB | EC50 | - | cytopathic effect / trypan blue | 5 µM
Cc1ccnc2c1NC(=O)c1cccnc1N2C1CC1 | MAGI | RT-V106A Y181C | NNRTI-resistant (RT V106A Y181C) | EC50 | - | β-galactosidase | >10 µM
CCc1c(Sc2ccccn2)n(COCc2ccccc2)c(=O)[nH]c1=O | MT-2 | - | TIBO-RS | EC50 | - | cytopathic effect | 0.65 ± 0.25 µM
CC(C)OC(=O)OCOP(=O)(CO[C@H](C)Cn1cnc2c(N)ncnc21)OCOC(=O)OC(C)C | TZM-bl | - | NL4-3 | EC50 | - | luciferase | 0.027 µM
Cc1ccc(-n2c(C)nnc2SCC(=O)Nc2ccccc2C(F)(F)F)cc1 | HeLa + HeLa-JC53 | RT-K103N Y181C | NL4-3 | EC50 | - | luciferase | >10 µM
O=CC1=C(Oc2ccc3ccccc3c2)N2C[C@@H]3CCCN4CCC[C@@H]([C@H]34)[C@H]2CC1 | C8166 | - | IIIB | EC50 | - | syncytia | 19.36 µg/mL
CC(C)(C)[Si](C)(C)OC[C@H]1O[C@@H](n2ccc(=O)[nH]c2=O)[C@H](O[Si](C)(C)C(C)(C)C)C12OS(=O)(=O)C=C2N | CEM | - | IIIB | EC50 | - | syncytia | 0.148 µM
CS(=O)(=O)c1ccc(OP(=O)(OC[C@@H]2C=C[C@H](n3ccc(=O)[nH]c3=O)O2)OC[C@@H]2C=C[C@H](n3ccc(=O)[nH]c3=O)O2)cc1 | MT-4 | - | IIIB | EC50 | - | cytopathic effect / trypan blue | >250 µM
O=Cc1ccc(O/C=C2/CC[C@@H]3[C@H]4CCCN5CCC[C@@H](CN3C2=O)[C@@H]45)cc1 | C8166 | - | IIIB | EC50 | - | syncytia | 48.26 µg/mL
CCc1cc(NCc2nc3c(Cl)ccc(Cl)c3o2)c(=O)[nH]c1C | CEM | - | IIIB | EC50 | - | syncytia | 0.007 µg/mL
Cc1cn([C@@H]2O[C@H](CO)C3(OS(=O)(=O)C=C3N)[C@H]2O[Si](C)(C)C(C)(C)C)c(=O)[nH]c1=O | CEM | - | IIIB | EC50 | - | syncytia | >80 µM

For reference, 6 entries again:

| structure | cell line | mutations | strain | measure | setting | method | result |
|---|---|---|---|---|---|---|---|
| CCc1c(Sc2ccccn2)n(COCc2ccccc2)c(=O)[nH]c1=O | MT-2 | - | TIBO-RS | EC50 | - | cytopathic effect | 0.65 ± 0.25 µM |
| Cc1ccc(-n2c(C)nnc2SCC(=O)Nc2ccccc2C(F)(F)F)cc1 | HeLa + HeLa-JC53 | RT-K103N Y181C | NL4-3 | EC50 | - | luciferase | >10 µM |
| O=C([O-])c1cc(COc2ccc(-c3c4nc(c(-c5ccc(OCc6cc(C(=O)[O-])cc(C(=O)[O-])c6)cc5)c5ccc([nH]5)c(-c5ccc(OCc6cc(C(=O)[O-])cc(C(=O)[O-])c6)cc5)c5nc(c(-c6ccc(OCc7cc(C(=O)[O-])cc(C(=O)[O-])c7)cc6)c6ccc3[nH]6)C=C5)C=C4)cc2)cc(C(=O)[O-])c1 | MAGI cell | - | BaL | EC50 | - | β-galactosidase | 0.19 µM |
| CN1CCOCC1c1nc(C(=O)NCc2ccc(F)cc2)c(O)c(=O)[nH]1 | MT-4 | - | - | EC50 | 50% human serum | p24 | <0.24 µM |
| O=c1[nH]c(=O)n([C@@H]2C=C[C@H](CO)O2)cc1F | PBMC | - | LAI | EC90 | - | RT activity | 3 µM |
| Cc1ccc(-n2c(C)nnc2SCC(=O)Nc2ccc(C#N)cc2Cl)cc1 | HeLa + HeLa-JC53 | RT-K103N Y181C | NL4-3 | EC50 | - | luciferase | 0.9 µM |